Anti-infective test results gathered from many reports (values: NIAID ChemDB through PubChem).

Common to all: growth or infection tests; organism: Mycobacterium tuberculosis

MIC bound: limit read from a one-dose screen.

structure	read by	tested at	strain or isolate	endpoint	result
Nc1ncc2nc3c4ccccc4c(=O)cc-3oc2n1	BACTEC	12.5 µg/mL	H37Rv	inhibition	83%
CO[C@H]1/C=C/O[C@@]2(C)Oc3c(C)c(O)c4c(O)c(c5c(c4c3C2=O)NC2(CCN(CC(C)C)CC2)N=5)=NC(=O)/C(C)=C\C=C\[C@H](C)[C@H](O)[C@@H](C)[C@@H](O)[C@@H](C)[C@H](OC(C)=O)[C@@H]1C			2275 (rifampin-resistant)	MIC	0.4 µg/mL
C[C@H]1COc2c(N3CCN(C)CC3)c(F)cc3c(=O)c(C(=O)O)cn1c23			ATCC 35828	MBC	0.5 µg/mL
O=C1CC(c2ccc(O)cc2)Oc2ccccc21		12.5 µg/mL		inhibition	18%
CC[C@H]1OC(=O)[C@H](C)[C@@H](O[C@H]2C[C@@](C)(OC)[C@@H](O)[C@H](C)O2)[C@H](C)[C@@H](O[C@@H]2O[C@H](C)C[C@H](N(C)C)[C@H]2O)[C@](C)(O)C[C@@H](C)CN(C)[C@H](C)[C@@H](O)[C@]1(C)O			ATCC 35827	MIC	>8 µg/mL
COc1ccc(CCNCCNCCCN2CCCC2=O)cc1				MIC	25 µM
OCC1(CO)CSSC1	BACTEC		H37Rv	MIC	≥12.5 µg/mL
Nc1ccc(Cl)c(C(=O)O)c1			H37Rv	MIC	>100 µg/mL
Clc1cccc2[nH]c(-c3ccncc3)nc12	BACTEC	6.25 µg/mL	H37Rv	inhibition	4%
C[C@@H]1[C@@H](NCCNCC(c2ccccc2)c2ccccc2)C[C@H]2C[C@@H]1C2(C)C				MIC	3.13 µM
[Cl-].[Cl][Fe]([Cl])[Cl].c1ccc(-c2cc(-c3ccccc3)[o+]c(-c3ccccc3)c2)cc1			H37Rv	MIC	>100 µg/mL
CCCCCCCCCCCNCCNC[C@@H]1CC[C@H]2C[C@@H]1C2(C)C				MIC	25 µM
CCOc1ccccc1CNCCNCCc1cc(OC)ccc1OC				MIC	50 µM
O=C(O)c1ccc(O)c2ncccc12			H37Rv	MIC	25 µg/mL
CCOC(=O)Nc1cc(N)c([N+](=O)[O-])c(NCC(O)CN(C)c2ccccc2)n1			H37Rv	EC50	>12.5 µg/mL
CNC(C)C(=O)c1ccccc1.Cl			H37Rv	MIC	>100 µg/mL
NNC(=O)CNc1cccc(I)c1	BACTEC		H37Rv	MIC bound	>12.5 µg/mL
O=[N+]([O-])c1ccc(-c2cccnc2)cc1			H37Rv	MIC	25 µg/mL
CC(Cc1c[nH]c2ccccc12)NCCNCC(c1ccccc1)c1ccccc1				MIC	6.25 µM
CCC(C)(C)c1ccc(Oc2cccc(C(=O)Nc3c(C)ccc(C)c3O)c2)cc1			H37Rv	MIC	>100 µg/mL
CCOC(=O)Nc1cc(NCC(C)CN(C)c2ccccc2)cc(NC(=O)OCC)n1			H37Rv	EC50	>12.5 µg/mL
Cc1cc(=O)[nH]c(N)n1			H37Rv	MIC	>100 µg/mL
CO[C@H]1/C=C/O[C@@]2(C)Oc3c(C)c(O)c4c(O)c(c(/C=N/N5CCN(C6CCCC6)CC5)c(O)c4c3C2=O)NC(=O)/C(C)=C\C=C\[C@H](C)[C@H](O)[C@@H](C)[C@@H](O)[C@@H](C)[C@H](OC(C)=O)[C@@H]1C			Isolate 900240 drug-susceptible	MIC	0.125 µg/mL
CCN(CC)CCC(=O)OC1/C(C)=C/C(C)C(=O)CC(C(C)CC2CCC(O)C(OC)C2)OC(=O)C2CCCCN2C(=O)C(=O)[C@@]2(O)OC(CCC2C)CC(OC)\C(C)=C/C=C/C=C/C(C)CC(C)C(=O)C1OC	BACTEC	12.5 µg/mL	H37Rv	inhibition	23%
C#Cc1c(C)cc(C)c(CC(N)=O)c1C			H37Rv	MIC	>100 µg/mL
COc1ccc(C2CC(=O)c3c(OC)cc(OC)c(I)c3O2)cc1			H37Rv	EC50	>12.5 µg/mL
CCOC(=O)c1nc2sc3c(c2c(=O)[nH]1)CCCC3	BACTEC		H37Rv	MIC bound	≤12.5 µg/mL
C[C@H](NCCNCCCCc1ccccc1)C1CCCCC1				MIC	50 µM
CC1=NN(C(=O)c2ccncc2)C(=O)C1N=Nc1ccc(C)cc1	BACTEC		H37Rv	MIC	≥12.8 µg/mL
CC(=O)Nc1ccc(S(=O)(=O)c2ccc(NC(C)=O)cc2)cc1			H37Rv	MIC	>100 µg/mL
Cn1c2cc(Cl)c(Cl)cc2nc2cc3c(cc21)c(Cl)c(=O)c1ccccc13	BACTEC	12.5 µg/mL	H37Rv	inhibition	33%
O=c1[nH]c2c([N+](=O)[O-])cc(Cl)cc2c(=O)o1			H37Rv	MIC	>100 µg/mL
C=C1C(=O)N2c3ccccc3C(C)(C)C2(S)C(=O)N1C	resazurin	6.25 µg/mL	H37Rv	inhibition	99%
CC(C)c1ccc2c(c1)CC[C@H]1[C@](C)(CNCCNN3CCCC3)CCC[C@]21C				MIC	50 µM
N=c1c2ccccc2c2ccccc2n1O	BACTEC		H37Rv	MIC bound	>12.5 µg/mL
Cc1cc(Cl)cc2sc(C(=O)[O-])c(N)c12.[Na+]			H37Rv	MIC	>100 µg/mL
C=C1C(=O)OC2C1CCC(C)C1(O)C=CC(=O)C21C	BACTEC		H37Rv	MIC	≥12.8 µg/mL
CO[C@H]1/C=C/O[C@@]2(C)Oc3c(C)c(O)c4c(O)c(c(/C=N/N5CCN(C/C=C/c6ccccc6)CC5)c(O)c4c3C2=O)NC(=O)/C(C)=C\C=C\[C@H](C)[C@H](O)[C@@H](C)[C@@H](O)[C@@H](C)[C@H](OC(C)=O)[C@@H]1C			2847 (rifampin-sensitive)	MBC	0.2 µg/mL
OCc1ccccc1Sc1ccccc1CNCCNCCc1ccccc1Cl				MIC	50 µM
CCOC(=O)Nc1cc(NCCCCc2ccccc2)c2[nH]cnc2n1			H37Rv	EC50	<12.5 µg/mL
CC(C)c1ccc2c(c1)CC[C@H]1[C@](C)(CNCCNCCc3ccccc3F)CCC[C@]21C				MIC	50 µM
CO[C@H]1/C=C/O[C@@]2(C)Oc3c(C)c(O)c4c(O)c(c5c(c4c3C2=O)NC2(CCN(CC(C)C)CC2)N=5)=NC(=O)/C(C)=C\C=C\[C@H](C)[C@H](O)[C@@H](C)[C@@H](O)[C@@H](C)[C@H](OC(C)=O)[C@@H]1C			Strain 102-117 (S531L)	MIC	12 µg/mL
O=C1CC(c2cccc(Cl)c2)Oc2ccccc21			H37Rv	EC50	>12.5 µg/mL
CC(=O)Nc1ccccc1-c1ccccc1NC(C)=O			H37Rv	MIC	100 µg/mL
CCOC(=O)c1ccc(NC(=O)Oc2cc(=O)oc3ccccc23)cc1	BACTEC	12.5 µg/mL	H37Rv	inhibition	79%
CCCCC(CC)CN1CN(CC(CC)CCCC)CC(C)(NCCN[C@H](CO)CC(C)C)C1				MIC	25 µM
CC1=C2N3C[C@@H](n4c(=O)n(C)c(=O)n43)[C@@]23CC[C@@H]1n1c(=O)n(C)c(=O)n13	BACTEC	12.5 µg/mL	H37Rv	inhibition	0%
COc1c(Cl)c(C)c(Cl)c(C)c1C(=O)O			H37Rv	MIC	100 µg/mL
CCN(CCNc1ccc(C)c2sc3cc(Cl)ccc3c(=O)c12)CC(C)(C)O	BACTEC	12.5 µg/mL	H37Rv	inhibition	19%
CC[C@H]1OC(=O)[C@H](C)[C@@H](O[C@H]2C[C@@](C)(OC)[C@@H](O)[C@H](C)O2)[C@H](C)[C@@H](O[C@@H]2O[C@H](C)C[C@H](N(C)C)[C@H]2O)[C@](C)(OC)C[C@@H](C)C(=O)[C@H](C)[C@@H](O)[C@]1(C)O			ATCC 35823	MIC	>8 µg/mL
CCC(C(O)C(Cl)(Cl)Cl)[N+](=O)[O-]			H37Rv	MIC	>100 µg/mL
NC(N)=NCCC[C@H]1NC(=O)[C@@H](Cc2ccc(O)cc2)NC1=O	BACTEC	12.5 µg/mL	H37Rv	inhibition	12%
CCCCCCCCCCCCCCCCNC(=S)NCCCCCCCCCCCCCCCC			H37Rv	MIC	>100 µg/mL
CC[C@@H](CO)NCCN[C@@H](CC)CO	broth dilution / resazurin		MDR17	MIC	8 µg/mL
O=C1c2ccccc2-c2nc3ccccc3n21	resazurin	6.25 µg/mL	H37Rv	inhibition	20%
CC(C)Nc1ccc(Br)c2c1C(=O)c1ccccc1C2=O			H37Rv	MIC	>100 µg/mL
Cc1ccc(C)c(NC(=O)C(=O)C2C(=O)N(c3ccccc3)N=C2N)c1	resazurin		H37Rv	MIC bound	>6.25 µg/mL
CCCCC(CC)CN1CN(CC(CC)CCCC)CC(C)(NCCNC2CCC2)C1				MIC	12.5 µM
Nc1ccc(C(=O)O)c(S)c1			H37Rv	MIC	100 µg/mL
CCC1CCCCN1CCNC/C=C(\C)CCC=C(C)C				MIC	12.5 µM
c1ccc(CCCCc2ccccn2)cc1			H37Rv	MIC	100 µg/mL
COc1ccc(/C=C/C(=O)c2cccc(I)c2O)cc1				EC50	>12.5 µg/mL
CCOC(=O)Nc1cc(NCc2ccc(S(N)(=O)=O)cc2)c2ncc(C)nc2n1			H37Rv	EC50	>12.5 µg/mL
NC1CCN(c2nc3c(cc2F)c(=O)c(C(=O)O)cn3-c2ccc(F)cc2F)C1			DRUG-SUS	MBC90	>8 µg/mL
COc1ccc(CNCCNC[C@]2(C)CCC[C@]3(C)c4ccc(C(C)C)cc4CC[C@@H]23)cc1OC				MIC	50 µM
COc1ccc(OC)c(CNCCNC2C3CC4CC(C3)CC2C4)c1				MIC	12.5 µM
CO[C@H]1/C=C/O[C@@]2(C)Oc3c(C)c(O)c4c(=O)c(c5oc6cc(N7CCN(CC(C)C)CC7)cc(=O)c6nc5c4c3=C2O)NC(=O)/C(C)=C\C=C\[C@H](C)[C@H](O)[C@@H](C)[C@@H](O)[C@@H](C)[C@H](OC(C)=O)[C@@H]1C			TN1595	MIC	4 µg/mL
Oc1c2ccccc2c(O)c2nc3ccccc3nc12	BACTEC		H37Rv	MIC bound	≤12.5 µg/mL
O=C(NCCCCC(Br)C(=O)O)c1ccccc1			H37Rv	MIC	>100 µg/mL
CCCCCCCCCCCNCCNCc1ccccc1F				MIC	25 µM
COc1ccc(C=C2C=C(C(C)(C)C)C(=O)C(C(C)(C)C)=C2)cc1	BACTEC	12.5 µg/mL	H37Rv	inhibition	99%
NCC[C@H](O)C(=O)N[C@@H]1C[C@H](N)[C@@H](O[C@H]2O[C@H](CN)[C@@H](O)[C@H](O)[C@H]2O)[C@H](O)[C@H]1O[C@H]1O[C@H](CO)[C@@H](O)[C@H](N)[C@H]1O			TN4826 (H)	MIC	>256 µg/mL
CCOCC(=O)OCC			H37Rv	MIC	50 µg/mL
Fc1ccc(CCNCCNCCCc2ccccc2)cc1				MIC	12.5 µM
CC(C)(C)c1cc(C=O)cc(C(C)(C)C)c1O	BACTEC	6.25 µg/mL	H37Rv	inhibition	0%
CC(NCCNC1CCCCCCC1)C12CC3CC(CC(C3)C1)C2				MIC	50 µM
CC[C@H]1OC(=O)[C@H](C)[C@@H](O[C@H]2C[C@@](C)(OC)[C@@H](O)[C@H](C)O2)[C@H](C)[C@@H](O[C@@H]2O[C@H](C)C[C@H](N(C)C)[C@H]2O)[C@](C)(O)C[C@@H](C)C(=O)[C@H](C)[C@@H](O)[C@]1(C)O			ATCC 35827	MIC	>8 µg/mL

MIC50, MIC90 and the like: level of inhibition, or share of isolates inhibited. Conditions beyond the fields shown may differ between rows. Inhibition is in % at the dose shown (toxicity tests: loss of growth or viability). An empty or dashed field is not shown. ECn: concentration that inhibits the pathogen or its effect by n%.